Compound potency records, mixed from different reports. Data source: NIAID ChemDB in PubChem.

All rows: whole-cell or culture tests; organism: Mycobacterium kansasii

An empty or dashed field is not shown. MIC50, MIC90 and the like: level of inhibition, or share of isolates inhibited. Neighbouring rows are from separate reports. Zone: diameter of growth inhibition.

compound | endpoint | strain | tested at | read by | conditions | result
O=C(Nc1ccc(C(F)(F)F)cc1)c1cc(Br)ccc1OP(=O)(Oc1ccccc1)Oc1ccccc1 | MIC | My 6509/96 | - | - | 7 d | 4 µM
CCCNC(=O)Nc1ccc(S(=O)(=O)Nc2cc(C)on2)cc1 | MIC100 | 235/80 | - | broth dilution / absorbance | 21 d | 1000 µM
O=C(/C=C/c1ccccc1Cl)c1cnccn1 | MIC | Hauduroy | - | absorbance | - | 25 µg/mL
NNC(=O)c1ccncc1 | MIC100 | DSM 44162 | - | broth dilution | - | 29.2 µM
NNC(=O)c1ccncc1 | MIC100 | 235/80 | - | broth dilution / absorbance | 7 d | >250 µM
O=C1c2cc(Cl)ccc2OP(=O)(c2ccccc2)N1c1ccc(Cl)cc1 | MIC | My 235/80 | - | - | 7 d | 8 µM
O=C(/C=C/c1ccccc1F)c1cnccn1 | MIC | Hauduroy | - | absorbance | - | 12.5 µg/mL
O=C(Nc1ccccc1)c1ccccc1OP(=O)(Oc1ccccc1)Oc1ccccc1 | MIC | My 6509/96 | - | - | 7 d | 125 µM
CC(C)(C)c1cnc(C(=O)/C=C/c2ccccc2F)cn1 | MIC | Hauduroy | - | absorbance | - | 12.5 µg/mL
O=C(Nc1ccc(Cl)cc1)c1cc(Cl)ccc1OP(=O)(c1ccccc1)c1ccccc1 | MIC | My 6509/96 | - | - | 14 d | 8 µM
CCCCCCCCCCNC(=O)Nc1ccc(S(=O)(=O)Nc2cc(C)on2)cc1 | MIC100 | 235/80 | - | broth dilution / absorbance | 7 d | 125 µM
O=C(Nc1ccc(Cl)cc1)c1cc(Cl)ccc1OP(=O)(Oc1ccccc1)Oc1ccccc1 | MIC | My 235/80 | - | - | 7 d | 8 µM
CCCc1c2c([nH]c(=O)c1C)C(=O)c1[nH]c(=O)c(C)c(CCC)c1C2=O | MIC90 | G133 Bostrom (ATCC 12478) | - | resazurin / fluorescence | - | >7.5 µg/mL
O=C(Nc1ccccc1)c1ccccc1OP(=O)(OCc1ccccc1)OCc1ccccc1 | MIC | My 6509/96 | - | - | 21 d | 250 µM
CCCc1cnc(C(=O)/C=C/c2ccccc2Br)cn1 | MIC | Hauduroy | - | absorbance | - | 6.25 µg/mL
O=C(N[C@H]([C@@H](O)CNCc1cccc(I)c1)C(F)(F)c1ccccc1)OCc1ccccc1 | MIC | P | - | broth dilution | - | 32 µg/mL
CC(C)Cc1cnc(C(=O)/C=C/c2ccc(Br)cc2)cn1 | MIC | Hauduroy | - | absorbance | - | 25 µg/mL
CCCCCNC(=O)Nc1ccc(S(=O)(=O)Nc2cc(C)on2)cc1 | MIC100 | 6509/96 clinical isolate | - | broth dilution / absorbance | 14 d | 500 µM
O=C(N/N=C/N1CCN(c2cc3c(cc2F)c(=O)c(C(=O)O)cn3C2CC2)CC1)c1ccc(C(F)(F)F)cc1 | MIC | 6509/96 | - | - | 14 d | 1 µM
CC[C@H]1OC(=O)[C@H](C)[C@@H](O[C@H]2C[C@@](C)(OC)[C@@H](O)[C@H](C)O2)[C@H](C)[C@@H](O[C@@H]2O[C@H](C)C[C@H](N(C)C)[C@H]2O)[C@](C)(OC)C[C@@H](C)C(=O)[C@H](C)[C@@H](O)[C@]1(C)O | MIC50 | 104 clinical isolates | - | - | - | ≤0.06 µg/mL
O=C1c2ccccc2OP(=O)(c2ccccc2)N1c1ccccc1 | MIC | My 235/80 | - | - | 7 d | 500 µM
O=C(N[C@H]([C@H](O)CNCc1cccc(I)c1)C(F)(F)c1ccccc1)OCc1ccccc1 | zone | ATCC 35775 | 50 µg/disc | agar diffusion | - | 12 mm
O=C1c2cc(Cl)ccc2OP(=O)(c2ccccc2)N1c1ccc(Cl)c(Cl)c1 | MIC | My 235/80 | - | - | 14 d | 8 µM
Cc1cc(NS(=O)(=O)c2ccc(NC(=O)N(C(C)C)C(C)C)cc2)no1 | MIC100 | 235/80 | - | broth dilution / absorbance | 21 d | 250 µM

For reference, 3 entries again:

CCCc1c2c([nH]c(=O)c1C)C(=O)c1[nH]c(=O)c(C)c(CCC)c1C2=O ; endpoint: MIC90 ; strain: G133 Bostrom (ATCC 12478) ; read by: resazurin / fluorescence ; result: >7.5 µg/mL
O=C(Nc1ccc(Cl)cc1)c1cc(Cl)ccc1OP(=O)(c1ccccc1)c1ccccc1 ; endpoint: MIC ; strain: My 6509/96 ; conditions: 14 d ; result: 8 µM
O=C(N[C@H]([C@H](O)CNCc1cccc(I)c1)C(F)(F)c1ccccc1)OCc1ccccc1 ; endpoint: zone ; strain: ATCC 35775 ; tested at: 50 µg/disc ; read by: agar diffusion ; result: 12 mm